# Measurements as given in patent publication US20220235118A1 (IMMUNOME, published 2022).
# B1: PR199_00255 (antibody, V domains shown)
# VH: QVQLVESGGGVVQPGRSLRLSCAASGFTFSTYGMHWVRQAPGKGLEWVAVIWYNGINKHYADSVKGRFTISRDNSKNTLYLQMSSLRVEDTAVYYCARDWGTLTTLFDFWGQGTLVTVSS
# VL: DIQMTQSPSSLSASVGERATITCRASQSISSHLNWYQQKPGKAPKFLIYGASSLQSGVPSRFSGSGSGTDFTLTISSLQPEDFATYYCQQSYSTPPWTFGQGTKVEIK
# notes: also called IMM20279; PR190_00255
# B2: PR193_00018 (antibody, V domains shown)
# VH: EVQLVESGGGLVQPGGSLRLSCSASGFTFSSFWMSWVRQAPGKGLEWVATIREDGSEKYYVDSVKGRFSISRDNAKNSLYLQMNSLRAEDTAVYYCARSKWLRGSFDYWGQGTLVTVSS
# VL: NFMLTQPHSVSESPGKTVTISCTRRSGSIASNYVQWYQQRPGSAPTTVIYEDNQRPSGVPDRFSGSIDSSSNSASLTISGLQTEDEADYYCQSYDSSNPPGASWVFGGGTKLTVL
# notes: also called IMM20184; IMM200184
# B3: PR200_00622 (antibody, V domains shown)
# VH: QVQLVESGGGVVQPGRSLRLSCTASGFTFSTYGMHWVRQAPGKGLEWVAVISYDGSSKHYAESVKGRFTISRDNSNNTLYLQMNRLRAEDTAVYYCARDGQPPGWGNYFDYWGQGTLVTVAS
# VL: SYVLTQPPSVSVAPGKTARITCGGNGIGSKSVYWYQQKPGQAPEVVVYDDSDRPSGIPERFSGSNSGNTATLTISRVEAGDEADYYCQVWDSSSDPWVFGGGTKLTVL
# notes: also called IMM20253; PR200_00253
# B4: PR194_00232 (antibody, V domains shown)
# VH: EVQLVESGGGLVQPGGSLRLSCSASGFTVSSNYMSWVRQAPRKGLEWVSVIYAGGSTFYADSVKGRFTISRDNSKNTLLLQMNSLRAEDTAVYYCARDRGGYLDYWGQGTLVTVSS
# VL: DIQMTQSPSSLSASVGDRVTITCRASQGISNYLAWYQQKPGKVPKLLIYAASTLQSGVPSRFSGSGSGTDFTLTISSLQPEDVATYYCQKYNSAPGLTFGGGTKVEIK
# notes: also called IMM20190; PR194_00190
# Biological target: SARS-CoV-2 Spike receptor binding domain (RBD), reference (USA/WA_CDC-WA1/2020) (SARS-CoV-2, UniProt P0DTC2 319-591)
# Assay: cell-based or functional assay
row,Binder,Phagocytosis score at 0.6 nM
1,B1,43.3
2,B2,56.6
3,B3,49.5
4,B4,48.1
